Data published in paper PMC8575991, “Development of molecular clamp stabilized hemagglutinin vaccines for Influenza A viruses” (2021).

Target: H3 foldon (HA ectodomain with the foldon trimerisation domain) (Influenza A virus A/Switzerland/9715293/2013 (H3N2) | bacteriophage T4)
Test: SEC

## H3 foldon (HA ectodomain with the foldon trimerisation domain)
  stoichiometry N: 3
